From the NIST ThermoML archive (doi:10.1016/j.jct.2018.07.024)
± gives the expanded uncertainty stated by the source.

Experiment: activity coefficient (dimensionless); xn = mol fraction of the nth substance listed
Settings: 101.33 kPa, Liquid, Chromatography, x1 = 0

SMILES	activity coefficient (318.15 K)	activity coefficient (328.15 K)	activity coefficient (338.15 K)	activity coefficient (348.15 K)	activity coefficient (358.15 K)	activity coefficient (368.15 K)
CCCCCO [pentan-1-ol] + CCCCCCCC[N+](CC)(CC)CC.O=S(=O)(F)[N-]S(=O)(=O)F	2.73 ± 0.19	2.58 ± 0.18	2.46 ± 0.17	2.34 ± 0.16	2.24 ± 0.15	2.15 ± 0.15
CCCCCO [pentan-1-ol] + CCCC[N+]1(C)CCCC1.O=S(=O)(F)[N-]S(=O)(=O)F	4.33 ± 0.29	4.08 ± 0.28	3.86 ± 0.26	3.67 ± 0.25	3.5 ± 0.24	3.33 ± 0.23
CCCC(C)=O [pentan-2-one] + CCCCCCCC[N+](CC)(CC)CC.O=S(=O)(F)[N-]S(=O)(=O)F	0.664 ± 0.045	0.706 ± 0.047	0.748 ± 0.049	0.789 ± 0.051	0.83 ± 0.053	0.871 ± 0.056
CCCC(C)=O [pentan-2-one] + CCCC[N+]1(C)CCCC1.O=S(=O)(F)[N-]S(=O)(=O)F	1.03 ± 0.06	1.1 ± 0.07	1.17 ± 0.07	1.23 ± 0.08	1.3 ± 0.08	1.36 ± 0.09
CCC(=O)CC [pentan-3-one] + CCCCCCCC[N+](CC)(CC)CC.O=S(=O)(F)[N-]S(=O)(=O)F	0.653 ± 0.045	0.699 ± 0.047	0.744 ± 0.049	0.79 ± 0.051	0.837 ± 0.054	0.881 ± 0.056
CCC(=O)CC [pentan-3-one] + CCCC[N+]1(C)CCCC1.O=S(=O)(F)[N-]S(=O)(=O)F	1.01 ± 0.06	1.08 ± 0.07	1.16 ± 0.07	1.23 ± 0.08	1.31 ± 0.09	1.38 ± 0.09
CCCO [propan-1-ol] + CCCCCCCC[N+](CC)(CC)CC.O=S(=O)(F)[N-]S(=O)(=O)F	2.19 ± 0.15	2.07 ± 0.14	1.97 ± 0.13	1.88 ± 0.13	1.8 ± 0.12	1.72 ± 0.12
CCCO [propan-1-ol] + CCCC[N+]1(C)CCCC1.O=S(=O)(F)[N-]S(=O)(=O)F	2.84 ± 0.19	2.68 ± 0.18	2.54 ± 0.17	2.42 ± 0.16	2.3 ± 0.16	2.21 ± 0.15
CCCc1ccccc1 [propylbenzene] + CCCCCCCC[N+](CC)(CC)CC.O=S(=O)(F)[N-]S(=O)(=O)F	1.53 ± 0.1	1.63 ± 0.11	1.73 ± 0.12	1.83 ± 0.12	1.92 ± 0.13	2.01 ± 0.14
CCCc1ccccc1 [propylbenzene] + CCCC[N+]1(C)CCCC1.O=S(=O)(F)[N-]S(=O)(=O)F	3.3 ± 0.22	3.48 ± 0.24	3.65 ± 0.25	3.81 ± 0.26	3.99 ± 0.27	4.15 ± 0.28
c1ccncc1 [pyridine] + CCCCCCCC[N+](CC)(CC)CC.O=S(=O)(F)[N-]S(=O)(=O)F	0.431 ± 0.035	0.457 ± 0.036	0.485 ± 0.037	0.512 ± 0.038	0.539 ± 0.039	0.565 ± 0.041
c1ccncc1 [pyridine] + CCCC[N+]1(C)CCCC1.O=S(=O)(F)[N-]S(=O)(=O)F	0.639 ± 0.044	0.678 ± 0.046	0.715 ± 0.048	0.754 ± 0.05	0.793 ± 0.052	0.83 ± 0.053
C=Cc1ccccc1 [styrene] + CCCCCCCC[N+](CC)(CC)CC.O=S(=O)(F)[N-]S(=O)(=O)F	0.647 ± 0.044	0.701 ± 0.047	0.755 ± 0.05	0.81 ± 0.052	0.867 ± 0.055	0.922 ± 0.058
C=Cc1ccccc1 [styrene] + CCCC[N+]1(C)CCCC1.O=S(=O)(F)[N-]S(=O)(=O)F	1.28 ± 0.08	1.37 ± 0.09	1.46 ± 0.1	1.55 ± 0.1	1.64 ± 0.11	1.74 ± 0.12
